# Assay results published in patent publication US6160004A, “C-10 carbon-substituted artemisinin-like trioxane compounds having antimalarial, antiproliferative and antitumor activities” (priority 1998, dated 2000).
# “Also recorded” adds a separate entry of the source.
# Assay: Exposure to iron (II), mechanism of action
# Details: exposed to iron (II); listed as methylfuran 5b
smiles,measurement,value
Cc1ccc([C@@H]2O[C@@H]3O[C@@]4(C)CC[C@H]5[C@H](C)CC[C@@H]([C@H]2C)[C@@]35OO4)o1 [Monomer 17b],evidence for reaction intermediates with iron (II),a C4 -hydroxylated product was isolated; also recorded: rearrangement of hexamethyl Dewar benzene into hexamethylbenzene was observed
